Compound potency records, mixed from different reports. Data source: NIAID ChemDB in PubChem.

All rows: growth or infection tests; agent: Coxsackie virus; read by: plaque count; endpoint: EC50

Rows are shuffled and stem from different studies. An empty or dashed field is not shown. ECn is the concentration giving n% inhibition of infection, replication or growth.

structure	strain	cell line	value
COc1ccc(OCCCCCCn2ccnc2)c(Cl)c1	TYPE A	HeLa	14.5 µM
Cc1cc(CCCCCOc2c(Cl)cc(C3=NCCO3)cc2Cl)on1	B-5	RD-2	0.03 µg/mL
Nc1nccc2c1ncn2[C@@H]1O[C@H](CO)[C@@H](O)[C@H]1O	B1	VERO	>125 µM
CSc1nsc(-c2ccc(OCCCOc3ccc([N+](=O)[O-])cc3)cc2)c1C#N	TYPE B1	HEP-2/L-929/VERO	>0.5 µM
COc1nsc(-c2ccccc2)c1C#N	TYPE B1	HEP-2	>25 µM
COC(=O)[C@]1(C)CCC[C@]2(C)c3ccc4[nH]c(C)nc4c3CCC12	TYPE B4	HeLa	>4 µg/mL
COc1ccc(-c2snc(SC)c2C#N)cc1	TYPE B1	HEP-2	>10 µM
Cn1cc(CCCCOc2ccc(C(=O)O)cc2)cc1C=O	-	VERO	>380 µM
CSc1nsc(-c2ccc(OCCOc3ccc([N+](=O)[O-])cc3)cc2)c1C#N	TYPE B1	HEP-2/L-929/VERO	>1 µM
Nc1nccc2c1nnn2[C@@H]1O[C@H](CO)[C@@H](O)[C@H]1O	B1	VERO	>398 µM
COC(=O)[C@]1(C)CCC[C@]2(C)c3cc(Br)c4nc[nH]c4c3CCC12	TYPE B4	HeLa	>4 µg/mL
N#Cc1c(-c2ccccc2)s[nH]c1=S	TYPE B1	HEP-2	>60 µM
COc1cc(/C=N/N=C(/N)NO)cc(OC)c1OC.Cc1ccc(S(=O)(=O)O)cc1	ATCC VR28 (TYPE B1)	VERO	0.7 µM
CSc1nsc(-c2ccc(OS(=O)(=O)c3ccc(C)cc3)cc2)c1C#N	TYPE B1	HEP-2	>25 µM
COC(=O)[C@]1(C)CCC[C@]2(C)c3ccc4[nH]c(C(F)(F)F)nc4c3CCC12	TYPE B4	HeLa	>4 µg/mL
OC[C@H]1O[C@@H](n2nnc3ccnc(Cl)c32)[C@H](O)[C@@H]1O	B1	VERO	>370 µM
CSc1nsc(-c2cccc(Cl)c2)c1C#N	TYPE B1	HEP-2	>10 µM
CSc1nsc(-c2ccc(OCCCCOc3ccc(C#N)cc3)cc2)c1C#N	TYPE B1	HEP-2/L-929/VERO	>2 µM
CSc1nsc(-c2ccc(OC(C)(C)C)cc2)c1C#N	TYPE B1	HEP-2	10 µM
COC(=O)Nc1nc2c3c(ccc2[nH]1)[C@@]1(C)CCC[C@@](C)(C(=O)OC)C1CC3	TYPE B4	HeLa	>4 µg/mL
N#Cc1c(-c2ccccc2)nsc1Cl	TYPE B1	HEP-2	>20 µM
COc1ccc(OC)c(/C=N/N=C(/N)NO)c1.Cc1ccc(S(=O)(=O)O)cc1	ATCC VR28 (TYPE B1)	VERO	50 µM
CCOC(=O)c1ccc(OCCCOc2ccc(-c3snc(SC)c3C#N)cc2)cc1	TYPE B1	HEP-2/L-929/VERO	>2 µM
OC[C@H]1O[C@@H](n2nnc3c(Cl)nccc32)[C@H](O)[C@@H]1O	B1	VERO	>370 µM

For reference, 3 entries again:

| structure | strain | cell line | value |
|---|---|---|---|
| Nc1nccc2c1ncn2[C@@H]1O[C@H](CO)[C@@H](O)[C@H]1O | B1 | VERO | >125 µM |
| Nc1nccc2c1nnn2[C@@H]1O[C@H](CO)[C@@H](O)[C@H]1O | B1 | VERO | >398 µM |
| CSc1nsc(-c2ccc(OS(=O)(=O)c3ccc(C)cc3)cc2)c1C#N | TYPE B1 | HEP-2 | >25 µM |